The assay relates to M. tuberculosis strain H37Rv. The assay can be described thus: microbe, parasite or virus in culture. The format is cell-based. Particulars: Mycobacterium tuberculosis, MABA, at least 90% reduction, average of three measurements, Table 2.

Values after ≈ are worked out from the molar mass of the structure shown.

`O=C(NC1CCCCCCC1)c1cc2c(F)cc(F)cc2[nH]1` [Compound 29, N-Cyclooctyl-4,6-difluoro-1H-indole-2-carboxamide] displayed an MIC of 0.1 µM (≈ 0.0306 µg/mL). With `O=C(NC1CCCCCCC1)c1cc2c(C(F)(F)F)cc(C(F)(F)F)cc2[nH]1` [Compound 36, N-Cyclooctyl-4,6-bis(trifluoromethyl)-1H-indole-2-carboxamide], the MIC worked out at 0.04 µM (≈ 0.0163 µg/mL).
